Key:
Escherichia coli [1] = assay: Ratio of Kcat to Km for Escherichia coli XL1-Blue VIM-2 A64W mutant beta-lactamase by spectrophotometer
Outline: (§1)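 Mutant enzyme expressed in E. coli BL21(DE3) in autoinducing ZYP-5052 medium. Purified by anion exchange at pH 7.2, then high-resolution anion exchange at pH 9.2, plus gel filtration in 50 mM HEPES-50 μM ZnSO4 pH 7.5 where needed. Identity confirmed by tryptic peptide mass fingerprint. Steady-state kinetics on β-lactam substrates were run under the conditions used for wild-type VIM-2.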

Escherichia coli [2] = assay: Activity of Escherichia coli XL1-Blue VIM-2 A64W mutant beta-lactamase by spectrophotometer; outline: as §1

CO/N=C(\C(=O)N[C@@H]1C(=O)N2C(C(=O)O)=C(COC(N)=O)CS[C@H]12)c1ccco1
kcat/Km (Escherichia coli [1]): 3.7 µM⁻¹ s⁻¹ | Km (Escherichia coli [2]): 4 µM | kcat (Escherichia coli [2]): 15 s⁻¹

Source: ChEMBL document CHEMBL1687761
